Measurements reported in paper PMC4383067, “Interaction of prion protein with acetylcholinesterase: potential pathobiological implications in prion diseases” (2015).
Values joined by “and” are separate entries in the source; they are usually repeats but may differ in a detail not shown here. Identical values can stand only once.

Target: the truncated fibrils

Substance: Full-length human acetylcholinesterase (dimeric, recombinant) (from UniProt P22303 32-614)
- fraction of protein complexes with Hup8TH (AChE:Hup8TH 1:20): 40% and 20%
